This note sets out measurements from patent US20250237650A1 (priority 2021, published 2025).

The subject of this experiment is monomeric HIV gp140 protein (group M, subtype CRF07_BC). More on the design: species or system HIV-1. As to conditions: CD4 signaling probe; p<0.05.

heparan sulfate [HS]: the “LFSA signal intensity of capture probes for Env protein” value was “significantly higher signal intensity than the HEP”.
